# Fold change is the IC50 on the isolate divided by the IC50 on a reference virus; 1 = unchanged, higher = more resistant. Changes are given against the subtype B consensus. No active / inactive call. The values were gathered from many studies (numbered anew) with different assays, which the source does not name. Most viruses are clinical isolates; some are laboratory strains or clones with known resistance changes. Isolates with mixed residues are left out; stretches that were not sequenced show no change. Round top values that many isolates share are read here as limits; other very high values and 0.1 may be limits too.
# What was measured:
# Test in all cases: fold change of IC50 against reference virus; higher = more resistant
# didanosine = compound: O=c1[nH]cnc2c1ncn2[C@H]1CC[C@@H](CO)O1 [didanosine]
# Protocol: (§1)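 Cell-culture drug susceptibility tests of virus bearing the reverse transcriptase of each isolate, gathered from many studies.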
# zidovudine = compound: Cc1cn([C@H]2C[C@H](N=[N+]=[N-])[C@@H](CO)O2)c(=O)[nH]c1=O [zidovudine]
# Protocol: as §1
# nevirapine = compound: Cc1ccnc2c1NC(=O)c1cccnc1N2C1CC1 [nevirapine]
# Protocol: as §1
test system,measurement,setting,value
"HIV-1 isolate 994 (reverse transcriptase changes: K122E Y181C F214L A272P K277R M357T A376T A400T N447S D460N S468T S519N, study 13)",fold change of IC50 against reference virus,didanosine,0.9
same,fold change of IC50 against reference virus,zidovudine,1
same,fold change of IC50 against reference virus,nevirapine,240
"HIV-1 isolate 641 (reverse transcriptase changes: L74V K122E F214L A272P K277R A376T A400T D460N S468T H483Y K512Q S519N, study 72)",fold change of IC50 against reference virus,didanosine,3
"HIV-1 isolate 805 (reverse transcriptase changes: V35T T39E S48T K122E D123G K166R K173A Q174E T200A Q207E V245Q, study 99)",fold change of IC50 against reference virus,didanosine,0.9
same,fold change of IC50 against reference virus,zidovudine,1
same,fold change of IC50 against reference virus,nevirapine,4
"HIV-1 isolate 526 (reverse transcriptase changes: L74V K102Q K103N S162C T215Y K219Q K277R I293V R358K V435I S468P K550G, study 45)",fold change of IC50 against reference virus,didanosine,8
same,fold change of IC50 against reference virus,zidovudine,4
same,fold change of IC50 against reference virus,nevirapine,30
"HIV-1 isolate 1629 (reverse transcriptase changes: M41L L74V K122E Y181C F214L T215Y A272P K277R M357T A376T A400T N447S D460N S468T S519N, study 13)",fold change of IC50 against reference virus,didanosine,7.1
same,fold change of IC50 against reference virus,zidovudine,2
same,fold change of IC50 against reference virus,nevirapine,60
"HIV-1 isolate 190 (reverse transcriptase changes: L74V K102Q K103N S162C T215Y K277R I293V R358K V435I S468P K550G, study 45)",fold change of IC50 against reference virus,didanosine,8
same,fold change of IC50 against reference virus,zidovudine,2000
same,fold change of IC50 against reference virus,nevirapine,30
"HIV-1 isolate 1284 (reverse transcriptase changes: K102Q S162C K277R I293V R358K V435I S468P K550G, study 45)",fold change of IC50 against reference virus,didanosine,1
same,fold change of IC50 against reference virus,zidovudine,1
same,fold change of IC50 against reference virus,nevirapine,1
"HIV-1 isolate 777 (reverse transcriptase changes: V75I F77L K122E Q151M F214L A272P K277R, study 72)",fold change of IC50 against reference virus,didanosine,6.8
same,fold change of IC50 against reference virus,zidovudine,48
"HIV-1 isolate 22 (reverse transcriptase changes: L74V K102Q S162C K277R I293V R358K V435I S468P K550G, study 16)",fold change of IC50 against reference virus,didanosine,4
same,fold change of IC50 against reference virus,nevirapine,1
"HIV-1 isolate 943 (reverse transcriptase changes: L74V L100I K102Q S162C K277R I293V R358K V435I S468P K550G, study 16)",fold change of IC50 against reference virus,didanosine,4
same,fold change of IC50 against reference virus,nevirapine,2
"HIV-1 isolate 199 (reverse transcriptase changes: F77L K102Q S162C K277R I293V R358K V435I S468P K550G, study 4)",fold change of IC50 against reference virus,didanosine,1
same,fold change of IC50 against reference virus,zidovudine,1
"HIV-1 isolate 997 (reverse transcriptase changes: V75I K102Q S162C K277R I293V R358K V435I S468P K550G, study 4)",fold change of IC50 against reference virus,didanosine,0.8
same,fold change of IC50 against reference virus,zidovudine,1
"HIV-1 isolate 990 (reverse transcriptase changes: D67N K70R K102Q S162C T215Y K219Q K277R I293V R358K V435I S468P K550G, study 16)",fold change of IC50 against reference virus,zidovudine,8000
same,fold change of IC50 against reference virus,nevirapine,1
"HIV-1 isolate 790 (reverse transcriptase changes: K102Q Q151M S162C K277R I293V R358K V435I S468P K550G, study 72)",fold change of IC50 against reference virus,didanosine,4.5
same,fold change of IC50 against reference virus,zidovudine,5.6
"HIV-1 isolate 1198 (reverse transcriptase changes: V75I F77L K102Q Q151M S162C K277R I293V R358K V435I S468P K550G, study 72)",fold change of IC50 against reference virus,didanosine,6.8
same,fold change of IC50 against reference virus,zidovudine,48
"HIV-1 isolate 122 (reverse transcriptase changes: L74V K102Q K103N S162C K277R I293V R358K V435I S468P K550G, study 16)",fold change of IC50 against reference virus,didanosine,8
same,fold change of IC50 against reference virus,nevirapine,8
"HIV-1 isolate 428 (reverse transcriptase changes: M41L A98G K102Q S162C T215Y K277R I293V R358K V435I S468P K550G, study 16)",fold change of IC50 against reference virus,zidovudine,4000
same,fold change of IC50 against reference virus,nevirapine,8
"HIV-1 isolate 202 (reverse transcriptase changes: T69G K102Q K103N S162C K277R, study 98)",fold change of IC50 against reference virus,zidovudine,1.2
same,fold change of IC50 against reference virus,nevirapine,40
"HIV-1 isolate 1642 (reverse transcriptase changes: L74V A98G K102Q S162C K277R I293V R358K V435I S468P K550G, study 16)",fold change of IC50 against reference virus,didanosine,8
same,fold change of IC50 against reference virus,nevirapine,8
"HIV-1 isolate 87 (reverse transcriptase changes: D67N K70R K102Q S162C Y181C T215Y K219Q K277R I293V R358K V435I S468P K550G, study 16)",fold change of IC50 against reference virus,zidovudine,4
same,fold change of IC50 against reference virus,nevirapine,8
"HIV-1 isolate 468 (reverse transcriptase changes: V75I F77L K102Q F116Y Q151M S162C K277R I293V R358K V435I S468P K550G, study 72)",fold change of IC50 against reference virus,didanosine,27
same,fold change of IC50 against reference virus,zidovudine,880
"HIV-1 isolate 210 (reverse transcriptase changes: D67N K70R K102Q K103N S162C T215Y K219Q K277R I293V R358K V435I S468P K550G, study 16)",fold change of IC50 against reference virus,zidovudine,8000
same,fold change of IC50 against reference virus,nevirapine,8
"HIV-1 isolate 579 (reverse transcriptase changes: M41L V106A K122E F214L T215Y A272P K277R M357T A376T A400T N447S D460N S468T S519N, study 17)",fold change of IC50 against reference virus,zidovudine,110
same,fold change of IC50 against reference virus,nevirapine,300
"HIV-1 isolate 357 (reverse transcriptase changes: D67N K70R A98G K102Q S162C T215Y K219Q K277R I293V R358K V435I S468P K550G, study 16)",fold change of IC50 against reference virus,zidovudine,2000
same,fold change of IC50 against reference virus,nevirapine,1
"HIV-1 isolate 1473 (reverse transcriptase changes: K70R K102Q S162C Y181C K277R I293V R358K V435I S468P K550G, study 16)",fold change of IC50 against reference virus,zidovudine,1
same,fold change of IC50 against reference virus,nevirapine,8
"HIV-1 isolate 1258 (reverse transcriptase changes: A62V K102Q S162C K277R I293V R358K V435I S468P K550G, study 4)",fold change of IC50 against reference virus,didanosine,1
same,fold change of IC50 against reference virus,zidovudine,1
"HIV-1 isolate 915 (reverse transcriptase changes: V179D Y181C T200A Q207E V245M, study 26)",fold change of IC50 against reference virus,zidovudine,1
same,fold change of IC50 against reference virus,nevirapine,30000
"HIV-1 isolate 69 (reverse transcriptase changes: L74V K102Q S162C Y181C K277R I293V R358K V435I S468P K550G, study 16)",fold change of IC50 against reference virus,didanosine,4
same,fold change of IC50 against reference virus,nevirapine,8
"HIV-1 isolate 1278 (reverse transcriptase changes: D67N K70R L100I K102Q S162C T215Y K219Q K277R I293V R358K V435I S468P K550G, study 16)",fold change of IC50 against reference virus,zidovudine,2
same,fold change of IC50 against reference virus,nevirapine,1
"HIV-1 isolate 1164 (reverse transcriptase changes: M41L K102Q S162C Y181C T215Y K277R I293V R358K V435I S468P K550G, study 16)",fold change of IC50 against reference virus,zidovudine,60
same,fold change of IC50 against reference virus,nevirapine,8
"HIV-1 isolate 470 (reverse transcriptase changes: V75I F77L K102Q F116Y Q151M S162C M184V K277R I293V R358K V435I S468P K550G, study 128)",fold change of IC50 against reference virus,didanosine,17
same,fold change of IC50 against reference virus,zidovudine,700
"HIV-1 isolate 204 (reverse transcriptase changes: K70R K102Q K103N S162C K277R I293V R358K V435I S468P K550G, study 16)",fold change of IC50 against reference virus,zidovudine,4
same,fold change of IC50 against reference virus,nevirapine,8
"HIV-1 isolate 892 (reverse transcriptase changes: V179D T200A Q207E V245M A272P, study 26)",fold change of IC50 against reference virus,zidovudine,1
same,fold change of IC50 against reference virus,nevirapine,1
"HIV-1 isolate 878 (reverse transcriptase changes: K102Q F116Y S162C K277R I293V R358K V435I S468P K550G, study 4)",fold change of IC50 against reference virus,didanosine,0.9
same,fold change of IC50 against reference virus,zidovudine,1
"HIV-1 isolate 114 (reverse transcriptase changes: K70R K101E K102Q S162C K277R I293V R358K V435I S468P K550G, study 16)",fold change of IC50 against reference virus,zidovudine,4
same,fold change of IC50 against reference virus,nevirapine,8
"HIV-1 isolate 1126 (reverse transcriptase changes: L74V K101E K102Q S162C K277R I293V R358K V435I S468P K550G, study 16)",fold change of IC50 against reference virus,didanosine,4
same,fold change of IC50 against reference virus,nevirapine,4
"HIV-1 isolate 1262 (reverse transcriptase changes: M41L K102Q K103N S162C T215Y K277R I293V R358K V435I S468P K550G, study 16)",fold change of IC50 against reference virus,zidovudine,2000
same,fold change of IC50 against reference virus,nevirapine,8

# Reference: the supplement of paper PMC3578754
